Measurements taken from PubChem BioAssay AID2606 (The Scripps Research Institute Molecular Screening Center, 2010).
The list shows a part of the results, in another mix than the full data. Active and inactive are the calls of the source. Rule as the data show it: active = inhibition above about 38%; inactive = the rest.

Chains of the proteins cited; added tags and fusions are not shown. Lines headed by an entry give the natural chain unless they say otherwise; changes in a name come on top.
UniProt P9WHR9: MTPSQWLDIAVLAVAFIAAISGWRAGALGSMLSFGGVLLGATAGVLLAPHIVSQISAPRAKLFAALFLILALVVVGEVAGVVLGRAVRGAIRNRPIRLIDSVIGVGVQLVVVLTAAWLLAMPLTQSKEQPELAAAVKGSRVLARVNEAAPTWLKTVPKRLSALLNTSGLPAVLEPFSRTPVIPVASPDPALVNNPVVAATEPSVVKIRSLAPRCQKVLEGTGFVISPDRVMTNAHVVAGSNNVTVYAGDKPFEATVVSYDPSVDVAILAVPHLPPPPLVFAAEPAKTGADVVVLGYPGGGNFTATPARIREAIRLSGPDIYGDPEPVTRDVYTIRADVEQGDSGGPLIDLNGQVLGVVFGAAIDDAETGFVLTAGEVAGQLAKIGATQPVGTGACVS

These compounds were tested against Serine protease Rv3671c (Mycobacterium tuberculosis (strain ATCC 25618 / H37Rv)) (UniProt P9WHR9) (assay: inhibition of M. tuberculosis membrane protease Rv3671c – biochemical, fluorescence polarization, M. tuberculosis H37Rv, primary screen (AID 2606;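 also: extracellular domain of Rv3671c used as enzyme; 0% = enzyme with DMSO and 100% = no enzyme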)). Conditions: at 5.96 µM; hits give high values.

SMILES	inhibition
CCCOP(=S)(Nc1nc(N)cc(=O)[nH]1)OCCC	inactive: -8.02%
Nc1cccc2c([As](=O)(O)O)cccc12	inactive: -31.5%
Cc1ccc(NCCc2c([N+](=O)[O-])cc([N+](=O)[O-])cc2[N+](=O)[O-])cc1	inactive: 7.98%
CCOP(=O)(Nc1cccc2ccccc12)OCC	inactive: -3.94%
COc1cc(C2NCCC3(OCCO3)C2(C)C)cc(OC)c1OC (stereo unspecified)	inactive: -3.52%
CS(=O)(=O)c1ccc(Cl)c(NC(=O)COC(=O)C(O)(c2ccccc2)c2ccccc2)c1	inactive: 1.94%
O=[As](O)(O)c1cccnc1	inactive: 0.31%
COc1cc(C(=O)NCC2(N3CCOCC3)CCCCC2)cc(Cl)c1OC(C)C	inactive: -4.59%
O=C(OC1CN2CCC1CC2)c1ccc(Cl)cc1 (stereo unspecified)	inactive: 5.73%
Cc1cccc(OCC(=O)OC2CN3CCC2CC3)c1 (stereo unspecified)	inactive: -1.57%
O=[As](O)(c1cccc(O)c1)c1cccc(O)c1	inactive: 6.88%
NC(=O)Nc1ccc([As](=O)(O)O)cc1	inactive: 0.43%
CN(C(=O)Cc1ccc(Cl)c(Cl)c1)[C@H]1CC[C@@]2(CCCO2)C[C@@H]1N1CCCC1	inactive: -0.03%
O=[N+]([O-])c1ccc2c(c1)nnn2O	inactive: 10.3%
CN(C)C(=O)c1cc([N+](=O)[O-])cc2c1-c1c(cc([N+](=O)[O-])cc1[N+](=O)[O-])C2=O	inactive: 28.3%
CCOP1(=S)c2c(C)nn(CCC#N)c2N=C(c2ccc(F)cc2)N1C (stereo unspecified)	inactive: -3.69%
CN(C(=O)Cc1ccccc1)[C@@H]1CC[C@]2(CCCO2)C[C@H]1N1CCCC1	inactive: -3.61%
N#CCCN(C(=O)COC(=O)C(O)(c1ccccc1)c1ccccc1)c1ccc(F)cc1	inactive: -4.08%
CS(=O)(=O)c1cc([N+](=O)[O-])c2no[n+]([O-])c2c1	inactive: -1.98%
O=P(Nc1nccs1)(Oc1ccccc1)Oc1ccccc1	inactive: -1.33%
O=P(Nc1nccs1)(c1ccccc1)c1nc2ccccc2s1 (stereo unspecified)	inactive: -8.91%
CCOP1(=S)c2c(C)nn(CCC#N)c2N=C(c2ccccc2F)N1C (stereo unspecified)	inactive: 0.72%
Nc1ccccc1[As](=O)(O)c1ccccc1	inactive: -10.1%
O=C(O)COc1ccc([As](=O)(O)O)cc1[N+](=O)[O-]	inactive: -9.33%
Cc1ccc(OP(=O)(Nc2ccccn2)Oc2ccc(C)cc2)cc1	inactive: 0.82%
CC(=O)NC(SC(=S)N(CC(C)C)CC(C)C)C(Cl)(Cl)Cl (stereo unspecified)	inactive: 3.97%

SMILES	inhibition
COC(=O)c1cc2c(s1)N=C(c1ccccc1)N(C)P2(=O)N1CCOCC1 (stereo unspecified)	inactive: 8.65%
CCC(=O)N1C2C3N(C(=O)CC)C1C1N(C(=O)CC)C(C(N1C(=O)CC)N3C(=O)CC)N2C(=O)CC	inactive: 4.49%
O=C(OC1CN2CCC1CC2)c1ccccc1 (stereo unspecified)	inactive: 0.32%
CN(C)C(=O)Oc1noc2ccccc12	inactive: 2.36%
CC(NC(=O)COC(=O)C(O)(c1ccccc1)c1ccccc1)c1ccccc1 (stereo unspecified)	inactive: -4.25%
Cc1ccccc1OP(=O)(Nc1ccccn1)Oc1ccccc1C	inactive: -1.8%
CCNC(=S)/N=C(\N)N[N+](=O)[O-]	inactive: -2.93%
O=C(NC1CCS(=O)(=O)C1)NP(=S)(Oc1ccccc1)Oc1ccccc1 (stereo unspecified)	inactive: 4.57%
CCOC(=O)NC(Sc1ccccc1)C(Cl)(Cl)Cl (stereo unspecified)	inactive: -8.37%
Cc1ccc(NP(=O)(Oc2cccc(C)c2)Oc2cccc(C)c2)nc1	inactive: -4.67%
c1ccc(-c2nn[nH]n2)c(-c2nn[nH]n2)c1	inactive: 4.79%
CC(=O)c1ccc(N2CC2c2ccncc2)cc1 (stereo unspecified)	inactive: 2.54%
C[C@H]1OP(=O)(Oc2ccccc2)C[C@@H]2O[C@@H]21 (stereo partly specified)	inactive: -2.14%
C[C@@H]1C=CCP(=O)(Oc2ccccc2)O1 (stereo partly specified)	inactive: 0.65%
Cc1ccccc1CN(C)C(=O)COC(=O)C(O)(c1ccccc1)c1ccccc1	inactive: 3.15%
CC(=O)Nc1ccc(Oc2c([N+](=O)[O-])cc([N+](=O)[O-])cc2[N+](=O)[O-])cc1	inactive: 8.34%
CC(=O)Nc1ccc([As](=O)(O)O)c(O)c1	inactive: -15.7%
CCOc1ccc(C2=NCC(CBr)S2)cc1 (stereo unspecified)	inactive: -3.45%
O=P1(Nc2nc3ccc(Cl)cc3s2)COc2ccccc2O1 (stereo unspecified)	inactive: -1.35%
CC(C)(C)C(=O)NC(Sc1ccccc1)C(Cl)(Cl)Cl (stereo unspecified)	inactive: -2.94%
CC(C)C(=O)NC(Sc1ccccc1)C(Cl)(Cl)Cl (stereo unspecified)	inactive: -9.98%
O=P(Nc1nccs1)(c1ccccc1)c1ccccc1	inactive: 7.87%
c1nnnn1CCn1cnnn1	inactive: -4.94%
O=[N+]([O-])c1ccc(O)c(/C=N/Nc2ccc([N+](=O)[O-])cc2[N+](=O)[O-])c1	inactive: 0.35%
O=[N+]([O-])c1ncn(CCn2cnc([N+](=O)[O-])n2)n1	inactive: 5.18%
